Results of unrelated studies side by side (data: NIAID ChemDB).

Common to all: whole-cell or culture tests; agent: Candida albicans

An empty or dashed field is not shown.

c1ccc(-c2n[nH]c(-c3cn(C4CCNCC4)nn3)n2)cc1 ; measure: MIC ; read by: agar ; result: 50 µg/mL
COc1ccc(C(=O)/C=C/c2cc(OC)c(OC)c(OC)c2)cc1OC ; measure: MIC ; strain or isolate: DSM 70014 ; result: 100 µg/mL
COc1cc(C=Nc2cccc(Cn3ccnc3)c2)cc(OC)c1OC ; measure: Mean MIC ; strain or isolate: 27 strains ; result: 151 µg/mL
COc1cc(C2CC(c3ccc4c(c3)OCO4)=NN2c2ccccc2)cc(OC)c1OC ; measure: MBC ; strain or isolate: DSM 70014 ; result: 50 µg/mL
O=C(Nc1ccc(Cn2ccnc2)cc1)c1ccc(Cl)cc1Cl ; measure: Mean MIC ; strain or isolate: 27 strains ; result: 83.33 µg/mL
COc1cc(C2C=C(c3ccc4c(c3)OCO4)NC(=S)N2)cc(OC)c1OC ; measure: MIC ; strain or isolate: DSM 70014 ; result: 100 µg/mL
O=C(Nc1ccccc1Cn1ccnc1)c1ccccc1Cl ; measure: Mean MIC ; strain or isolate: 27 strains ; result: 50 µg/mL
CS(=O)(=O)N1CCC(n2cc(-c3nc(-c4ccccc4)n[nH]3)nn2)CC1 ; measure: MIC ; read by: agar ; result: 20 µg/mL
OC(CN1CCN(c2ccc(OCc3ccncc3)cc2)CC1)(Cn1cncn1)c1ccc(F)cc1F ; measure: MIC80 ; strain or isolate: 304103 ; result: 2 µg/mL
COc1c(O)cc2oc3cc(O)cc(O)c3c(=O)c2c1OC ; measure: MIC80 ; strain or isolate: ATCC 663.90 ; result: 62 µg/mL
Nc1ccc(Cl)cc1C(=O)Nc1ccccc1 ; measure: MIC ; strain or isolate: ATCC 44859 ; result: >500 µM
CC(C)(C)OC(=O)N1CCC(n2cc(-c3nc(-c4ccccc4)n[nH]3)nn2)CC1 ; measure: MIC ; read by: agar ; result: 160 µg/mL
COc1cc(C2C=C(c3ccc4c(c3)OCO4)NC(SCC(=O)Nc3ccc(Cl)cc3)N2)cc(OC)c1OC ; measure: MIC ; strain or isolate: DSM 70014 ; result: 50 µg/mL
COC1CC2CCC(C)C(O)(O2)C(=O)C(=O)N2CCCCC2C(=O)OC(C(C)CC2CCC(O)C(OC)C2)CC(=O)C(C)/C=C(\C)C(O)CC(=O)C(C)CC(C)/C=C/C=C/C=C/1C ; measure: MIC ; strain or isolate: ATCC11651 ; result: 0.3 µg/mL
OC(c1cc(-c2ccc(-c3ccccc3)cc2)nc2ccccc12)C1CCCCN1 ; measure: MIC ; strain or isolate: ATCC 90028 ; result: 3.1 µg/mL
CN1CCC(n2cc(-c3nc(-c4ccc(Cl)cc4)n[nH]3)nn2)CC1 ; measure: MIC ; read by: agar ; result: 25 µg/mL
COc1ccc(C2=NN(c3ccccc3)C(c3cc(OC)c(OC)c(OC)c3)C2)cc1OC ; measure: MBC ; strain or isolate: DSM 70014 ; result: 100 µg/mL
CCC(=O)N1CCC(n2cc(-c3nc(-c4ccc(C)cc4)n[nH]3)nn2)CC1 ; measure: MIC ; read by: agar ; result: 160 µg/mL
OC(c1cc(-c2ccc(Cl)cc2)nc2c1ccc1ccccc12)C1CCCCN1 ; measure: MIC ; strain or isolate: ATCC 90028 ; result: 0.8 µg/mL
CCOc1cc2c(cc1F)n([O-])c(C)c(Cl)[n+]2=O ; measure: MIC ; strain or isolate: Clinical isolate 20 ; result: 15.6 µg/mL
COc1ccc(C2=CC(c3cc(OC)c(OC)c(OC)c3)NC(=S)N2c2ccccc2)cc1OC ; measure: MIC ; strain or isolate: DSM 70014 ; result: 100 µg/mL
Cc1c(Sc2ccccc2)[n+](=O)c2cc(Cl)ccc2n1[O-] ; measure: MIC ; strain or isolate: Clinical isolate 15 ; result: 15.6 µg/mL
COc1c(O)ccc2oc3ccccc3c(=O)c12 ; measure: MIC80 ; strain or isolate: ATCC 663.90 ; result: 62 µg/mL
O=C(Nc1cccc(Cn2ccnc2)c1)c1ccccc1Cl ; measure: Mean MIC ; strain or isolate: 27 strains ; result: 200 µg/mL
CO[C@H]1C[C@@H]2CC[C@@H](C)[C@@](O)(O2)C(=O)C(=O)N2CCCC[C@H]2C(=O)O[C@H]([C@H](C)C[C@@H]2CC[C@@H](O)[C@H](OC)C2)CC(=O)[C@H](C)/C=C(\C)[C@@H](O)[C@@H](OC)C(=O)[C@H](C)C[C@H](C)/C=C/C=C/C=C/1C ; measure: MIC ; strain or isolate: ATCC11651 ; result: <0.0625 µg/mL
CCCCCOc1ccc(-c2cc(-c3ccc(C(=O)N[C@H]4C[C@@H](O)[C@@H](O)NC(=O)[C@@H]5[C@@H](O)[C@@H](C)CN5C(=O)[C@H]([C@H](O)CC(N)=O)NC(=O)[C@H]([C@H](O)[C@@H](O)c5ccc(O)c(OS(=O)(=O)O)c5)NC(=O)[C@@H]5C[C@@H](O)CN5C(=O)[C@H]([C@@H](C)O)NC4=O)cc3)no2)cc1 ; measure: MFC50 ; strain or isolate: 12 isolates ; result: 0.0313 µg/mL
COc1ccc(C2=CC(c3cc(OC)c(OC)c(OC)c3)NC(=O)N2)cc1OC ; measure: MIC ; strain or isolate: DSM 70014 ; result: 12.5 µg/mL
Nc1ccc(Cl)cc1C(=O)Nc1ccc(F)cc1 ; measure: MIC ; strain or isolate: ATCC 44859 ; result: >1000 µM
O=C(Nc1ccccc1Cn1ccnc1)c1cccc(Cl)c1 ; measure: Mean MIC ; strain or isolate: 27 strains ; result: 156 µg/mL
Nc1ccccc1C(=O)Nc1ccc(Br)cc1 ; measure: MIC ; strain or isolate: ATCC 44859 ; result: 1000 µM
Cc1c(S(=O)(=O)c2ccccc2)[n+](=O)c2cc(Cl)ccc2n1[O-] ; measure: MIC ; strain or isolate: Clinical isolate 2 ; result: 15.6 µg/mL
COc1c(O)cc2oc3c(O)cccc3c(=O)c2c1O ; measure: MIC80 ; strain or isolate: ATCC 663.90 ; result: 62 µg/mL
COc1cc(C2CC(c3ccc4c(c3)OCO4)=NN2c2ccc([N+](=O)[O-])cc2)cc(OC)c1OC ; measure: MIC ; strain or isolate: DSM 70014 ; result: 25 µg/mL
Cc1c(Cl)[n+](=O)c2cc(Cl)ccc2n1[O-] ; measure: MIC ; strain or isolate: Clinical isolate 18 ; result: 7.8 µg/mL
O=[N+]([O-])c1ccc(C=Nc2cccc(Cn3ccnc3)c2)cc1 ; measure: Mean MIC ; strain or isolate: 27 strains ; result: 90.97 µg/mL

A second listing of 2 rows from above:

compound	measure	read by	strain or isolate	result
Nc1ccc(Cl)cc1C(=O)Nc1ccc(F)cc1	MIC	-	ATCC 44859	>1000 µM
COc1ccc(C2=CC(c3cc(OC)c(OC)c(OC)c3)NC(=S)N2c2ccccc2)cc1OC	MIC	-	DSM 70014	100 µg/mL

A number after MIC or MFC names an inhibition level or a share of isolates. Lines come from different laboratories, so protocols vary.